Anti-infective test results gathered from many reports (values: NIAID ChemDB through PubChem).

Common to all: whole-cell or culture tests

Lines come from different laboratories, so protocols vary. Inhibition is in % at the dose shown (toxicity tests: loss of growth or viability). An empty or dashed field is not shown. MIC50, MIC90 and the like: level of inhibition, or share of isolates inhibited. a–b is a range or a potency band.

compound | dose | setting | strain | read-out | species | method | result
CC[C@H]1OC(=O)[C@H](C)[C@@H](O[C@H]2C[C@@](C)(OC)[C@@H](O)[C@H](C)O2)[C@H](C)[C@@H](O[C@@H]2O[C@H](C)C[C@H](N(C)C)[C@H]2O)[C@](C)(O)C[C@@H](C)/C(=N\OC)[C@H](C)[C@@H](O)[C@]1(C)O |  |  | 20066 (clarithromycin-susceptible) | MIC | Mycobacterium avium intracellulare |  | 12.5 µg/mL
CCCCCCCC(CCCCCCC)NC(=O)NC(CCC(=O)O)(CCC(=O)O)CCC(=O)O |  |  | EO-P-1 | MIC | Mycobacterium chelonae |  | 36 µg/mL
Cc1nc2ccccn2c1C(=O)NCc1ccc(OC(F)(F)F)cc1 |  |  |  | MIC50 | Mycobacterium ulcerans | fluorescence | 0.1–1 µg/mL
CC[C@H]1OC(=O)[C@H](C)[C@@H](O[C@H]2C[C@@](C)(OC)[C@@H](OC(C)=O)[C@H](C)O2)[C@H](C)[C@@H](O[C@@H]2O[C@H](C)C[C@H](N(C)C)[C@H]2OC(=O)NNCc2ccccc2[N+](=O)[O-])C(C)(O)C[C@@H](C)/C(=N\OCCCC2CCCCC2)[C@H](C)[C@@H](O)[C@]1(C)O |  |  | 20092 (clarithromycin-resistant) | MIC | Mycobacterium avium complex |  | 0.39 µg/mL
Cc1ccc(-n2c(=O)oc3ccc(C)cc3c2=S)cc1 |  | 21 d | 6509/96 | MIC | Mycobacterium kansasii |  | 2 µM
CC[C@H]1OC(=O)[C@H](C)[C@@H](OC(=O)CCCc2ccccc2)[C@H](C)[C@@H](O[C@@H]2O[C@H](C)C[C@H](N(C)C)[C@H]2O)C(C)(O)C[C@@H](C)/C(=N\OCCCOc2ccccc2)[C@H](C)[C@@H](O)[C@]1(C)O |  |  | 20092 (clarithromycin-resistant) | MIC | Mycobacterium avium complex |  | 12.5 µg/mL
O=c1oc2ccc(Br)cc2c(=S)n1-c1ccc(Cl)cc1 |  | 21 d | 6509/96 | MIC | Mycobacterium kansasii |  | 4 µM
CCc1nc2ccc(Cl)cn2c1C(=O)NCc1ccc(C2=C[C@H](C)N(c3ccc(OC(F)(F)F)cc3)CC2)c(F)c1.Cl | 0.007 µM |  |  | inhibition | Mycobacterium avium | fluorescence | 85%
CO[C@H]1/C=C/O[C@@]2(C)Oc3c(C)c(O)c4c(=O)c(c5oc6cc(N7CCN(CC(C)C)CC7)cc(=O)c6nc5c4c3=C2O)NC(=O)/C(C)=C\C=C\[C@H](C)[C@H](O)[C@@H](C)[C@@H](O)[C@@H](C)[C@H](OC(C)=O)[C@@H]1C |  |  | Isolate 5143 | MIC | Mycobacterium ulcerans |  | 0.025 µg/mL
CCCCCCCCO/N=C1\[C@H](C)CC(C)(O)[C@H](O[C@@H]2O[C@H](C)C[C@H](N(C)C)[C@H]2O)[C@@H](C)[C@H](O[C@H]2C[C@@](C)(OC)[C@@H](OC(C)=O)[C@H](C)O2)[C@@H](C)C(=O)O[C@H](CC)[C@@](C)(O)[C@H](O)[C@H]1C |  |  | 20096 (clarithromycin-resistant) | MIC | Mycobacterium avium complex |  | 1.56 µg/mL
CC[C@H]1OC(=O)[C@H](C)[C@@H](O[C@H]2C[C@@](C)(OC)[C@@H](O)[C@H](C)O2)[C@H](C)[C@@H](O[C@@H]2O[C@H](C)C[C@H](N(C)C)[C@H]2O)[C@](C)(OC)C[C@@H](C)C(=O)[C@H](C)[C@@H](O)[C@]1(C)O |  |  | EO-P-1 | MIC | Mycobacterium chelonae |  | 12.5 µg/mL
Cc1nc2ccc(Cl)cn2c1C(=O)NCc1ccc(-c2ccccc2)cc1 |  |  |  | MIC50 | Mycobacterium ulcerans | fluorescence | 0.001–0.01 µg/mL
CCCCCCCCCCCCCCCCCCC(=O)NC(C)(CCC(=O)O)CCC(=O)O |  |  | ATCC 927 | MIC | Mycobacterium marinum |  | 215 µg/mL
CC[C@H]1OC(=O)[C@H](C)[C@@H](O[C@H]2C[C@@](C)(OC)[C@@H](OC(C)=O)[C@H](C)O2)[C@H](C)[C@@H](O[C@@H]2O[C@H](C)C[C@H](N(C)C)[C@H]2O)C(C)(O)C[C@@H](C)/C(=N\OCc2ccccc2)[C@H](C)[C@@H](O)[C@]1(C)O |  |  | 20096 (clarithromycin-resistant) | MIC | Mycobacterium avium complex |  | 25 µg/mL
CC(C)N=C(N)/N=C(\N)NOCCCOc1cc(Cl)c(Cl)cc1Cl |  |  | 3009 | MIC | Mycobacterium avium complex |  | 64 µg/mL
CCCC(=O)O[C@H]1[C@H](C)OC(O[C@H]2[C@H](C)[C@@H](O[C@@H]3O[C@H](C)C[C@H](N(C)C)[C@H]3O)C(C)(O)C[C@@H](C)/C(=N\OCCCOc3ccccc3)[C@H](C)[C@@H](O)[C@](C)(O)[C@@H](CC)OC(=O)[C@@H]2C)C[C@@]1(C)OC |  |  | 20039 (clarithromycin-susceptible) | MIC | Mycobacterium avium complex |  | 1.56 µg/mL
CCc1nc2ccc(Cl)cn2c1C(=O)NCc1ccc(N2CCC(c3ccc(OC(F)(F)F)cc3)CC2)cc1 |  |  |  | MIC50 | Mycobacterium ulcerans | fluorescence | <0.001 µg/mL
CCCCCCCCCCCCCCCCCCCCCCNC(=O)NC(CCC(=O)O)(CCC(=O)O)CCC(=O)O |  |  | ATCC 927 | MIC | Mycobacterium marinum |  | 108 µg/mL
Cc1ccn2c(C(=O)NCc3ccc(Oc4ccc(C(F)(F)F)cc4)cc3)c(C)nc2c1 | 0.44 µM |  |  | inhibition | Mycobacterium avium | fluorescence | 85%
CCCCCCCCCCC(CCCCCCCCCC)NC(=O)NC(CCC(=O)O)(CCC(=O)O)CCC(=O)O |  |  | EO-P-1 | MIC | Mycobacterium chelonae |  | 27 µg/mL
O=C(NCc1ccc(C2CCN(c3ccc(OC(F)(F)F)cc3)CC2)c(F)c1)c1c(C(F)(F)F)nc2ccc(Cl)cn12 | 0.013 µM |  |  | inhibition | Mycobacterium avium | fluorescence | 85%
COc1ccc2oc(=S)n(-c3ccc(Br)cc3)c(=S)c2c1 |  | 21 d | My 235/80 | MIC | Mycobacterium kansasii |  | 32 µM
CC[C@H]1OC(=O)[C@H](C)[C@@H](O[C@H]2C[C@@](C)(OC)[C@@H](OC(C)=O)[C@H](C)O2)[C@H](C)[C@@H](O[C@@H]2O[C@H](C)C[C@H](N(C)C)[C@H]2O)C(C)(O)C[C@@H](C)/C(=N\OCCCOc2ccccc2)[C@H](C)[C@@H](O)[C@]1(C)O |  |  | 20096 (clarithromycin-resistant) | MIC | Mycobacterium avium complex |  | 0.78 µg/mL
CCc1nc2ccc(F)cn2c1C(=O)NCc1ccc(N2CCN(c3ccc(OC(F)(F)F)cc3)[C@@H](C)C2)c(F)c1 | 0.008 µM |  |  | inhibition | Mycobacterium avium | fluorescence | 85%
Cc1nc2ccc(Br)cn2c1C(=O)NCc1ccc(OC(F)(F)F)cc1 |  |  |  | MIC50 | Mycobacterium ulcerans | fluorescence | 0.1–1 µg/mL
CCCCCCCCCCCCCCC(=O)NC(CCC(=O)O)(CCC(=O)O)CCC(=O)O |  |  | AAy-P-1 | MIC | Mycobacterium abscessus |  | 144 µg/mL
CCc1nc2ccc(Cl)cn2c1C(=O)NCc1ccc(N2CC=C(c3ccc(OC(F)(F)F)cc3)CC2)c(F)c1.Cl | 0.011 µM |  |  | inhibition | Mycobacterium avium | fluorescence | 85%
CCn1c(CNC(=O)c2c(-c3cccc(C)c3)nc3ccc(C)cn23)nc2ccccc21 |  |  |  | MIC50 | Mycobacterium ulcerans | fluorescence | >10 µg/mL
Fc1ccc2oc(=S)n(-c3ccc(C(F)(F)F)cc3)c(=S)c2c1 |  | 21 d | My 235/80 | MIC | Mycobacterium kansasii |  | 8 µM
Nc1ccc(S(=O)(=O)c2ccc(N)cc2)cc1 |  |  | DW14 | MIC | Mycobacterium avium complex |  | 32 µg/mL
CC[C@H]1OC(=O)[C@H](C)[C@@H](O[C@H]2C[C@@](C)(OC)[C@@H](OC(C)=O)[C@H](C)O2)[C@H](C)[C@@H](O[C@@H]2O[C@H](C)C[C@H](N(C)C)[C@H]2O)C(C)(O)C[C@@H](C)/C(=N\OCCCc2ccccc2)[C@H](C)[C@@H](O)[C@]1(C)O |  |  | 20092 (clarithromycin-resistant) | MIC | Mycobacterium avium complex |  | 6.25 µg/mL
Fc1cccc(-n2c(=S)oc3ccc(F)cc3c2=S)c1 |  | 14 d | 6509/96 | MIC | Mycobacterium kansasii |  | 16 µM
CO[C@H]1/C=C/O[C@@]2(C)Oc3c(C)c(O)c4c(O)c(c5c(c4c3C2=O)NC2(CCN(CC(C)C)CC2)N=5)=NC(=O)/C(C)=C\C=C\[C@H](C)[C@H](O)[C@@H](C)[C@@H](O)[C@@H](C)[C@H](OC(C)=O)[C@@H]1C |  |  | 21 strains | MIC90 | Mycobacterium avium intracellulare |  | 0.5 µg/mL
CC[C@H]1OC(=O)[C@H](C)[C@@H](OC(=O)Cc2ccccn2)[C@H](C)[C@@H](O[C@@H]2O[C@H](C)C[C@H](N(C)C)[C@H]2O)C(C)(O)C[C@@H](C)/C(=N\OCCCOc2ccccc2)[C@H](C)[C@@H](O)[C@]1(C)O |  |  | 20039 (clarithromycin-susceptible) | MIC | Mycobacterium avium complex |  | 3.13 µg/mL
COc1ccc2oc(=O)n(-c3ccccc3)c(=S)c2c1 |  | 21 d | My 235/80 | MIC | Mycobacterium kansasii |  | 32 µM

Repeating the first 3 entries:

compound | dose | setting | strain | read-out | species | method | result
CC[C@H]1OC(=O)[C@H](C)[C@@H](O[C@H]2C[C@@](C)(OC)[C@@H](O)[C@H](C)O2)[C@H](C)[C@@H](O[C@@H]2O[C@H](C)C[C@H](N(C)C)[C@H]2O)[C@](C)(O)C[C@@H](C)/C(=N\OC)[C@H](C)[C@@H](O)[C@]1(C)O |  |  | 20066 (clarithromycin-susceptible) | MIC | Mycobacterium avium intracellulare |  | 12.5 µg/mL
CCCCCCCC(CCCCCCC)NC(=O)NC(CCC(=O)O)(CCC(=O)O)CCC(=O)O |  |  | EO-P-1 | MIC | Mycobacterium chelonae |  | 36 µg/mL
Cc1nc2ccccn2c1C(=O)NCc1ccc(OC(F)(F)F)cc1 |  |  |  | MIC50 | Mycobacterium ulcerans | fluorescence | 0.1–1 µg/mL